Source: patent US20030181436A1, “Treatment for AIDS, HIV, and other related diseases and compounds for use therewith” (priority 2001, published 2003)
Read-outs that look alike come from different tables or passages of the source. Some results come without the dose or concentration used. The index is printed as in the source, without its formula.

Test system: HIV-1 attachment to HeLa CD4 LTR B-gal cells
Assay: Inhibition of attachment assay
Type: cell-based
Description: The attachment assay was performed with the HeLa CD4 LTR B-gal cells available from the AIDS Research and Reference Reagent Repository. […] HeLa CD4 LTR B-gal cells express cell surface CD4 and contain an LTR B-galactosidase reporter construct. Upon infection either the Tat protein incorporated into the virion or new Tat produced following virus integration and transcription trans-activate the LTR B-gal reporter, leading to expression of the B-galactosidase enzyme. HeLa CD4 LTR B-gal cells are routinely cultured with the required selection antibiotics and scrended for mycoplasma contamination. Twenty-four h prior to initiation of the assay cells were trypsinized, counted and 1×10^4 cells placed in a 0.2 cm well in media without selection antibiotics. Media was removed and compound media placed on the cells and incubated for 15 to 30 min at 37° C. A known titer of virus was then added to the wells and the incubation continued for 1 h. At the end of the incubation the wells were washed 6 times with media and the culture continued for 48 h. At 48 h the wells were washed one time with PBS and B-galactosidase enzyme expression determined by chemiluminescence per manufacturers instructions (Tropix Gal-screen TM, Tropix, Bedford, Mass.). Compound toxicity was monitored on sister plates using MTS dye reduction. (See Tables 14 through 16 and FIGS. 21 and 22).

Question: COc1cc(-c2ccc(/N=N/c3ccc4c(S(=O)(=O)O)cc(S(=O)(=O)O)c(N)c4c3O)c(OC)c2)ccc1/N=N/c1ccc2c(S(=O)(=O)O)cc(S(=O)(=O)O)c(N)c2c1O [Chicago Sky Blue] was tested. Which “Therapeutic Index” value did it give?
Answer: The value was over 33.

Question: And the “Therapeutic Index” value (listed as CHICAGO SKY BLUE)?
Answer: Its value is “TI = >33”.
